Patent publication US11648287B2, “Composition for the treatment of intracellular bacterial infection” (priority 2017, dated 2023)

Tests used:
[1] = test system: Raw 264.7 cells; assay: Confocal fluorescence microscopy of intracellular distribution of gentamicin and photosensitizer; format: cell-based, mouse; settings: for intracellular distribution: 10 μg/ml fluorescently labelled gentamicin + 1 μg/ml TPCS2a overnight
[2] = test system: RAW 264.7 macrophage cell line; assay: Fluorescence microscopy of intracellular localization of vancomycin and TPCS2a; format: cell-based, mouse; settings: 1 μg/ml TPCS2a and 50 μg/mL BODIPY FL-Vancomycin for 18 h
[3] = after illumination of 2 minutes

With gentamicin the “site of accumulation after release” value [1, 3] was “seemed to accumulate at the nuclei”, the intracellular distribution [1, 3] was “released into the cytosol” and the intracellular distribution ([1]; without illumination) was “localized within cellular compartments in the periphery of the cells”.
For “tetraphenyl chlorin disulphonate [TPCS2a]”, the intracellular distribution [1, 3] was “released into the cytosol”, the intracellular distribution ([1]; without illumination) was “localized within cellular compartments in the periphery of the cells” and the intracellular localization ([2]; after illumination for 120 s) was “released from the endocytic vesicles”. The intracellular localization ([2]; before illumination) was “localized in small spots inside the cells, corresponding to endocytic vesicles”.
